As a reminder, the Kd is a measure of binding affinity in units of concentration. Higher therefore signals weaker binding. The term EC50 denotes the concentration at which the effect is half-maximal.

The values below come from article PMC3569735.

One assay deals with V1–V2 bnAb PG9 (human). Briefly: SPR. (In SPR one partner is held on a chip, and binding of the other changes the refractive index at the surface.)
The target of assay [1] is gp70 B.CaseA2 V1–V2 (HIV-1 (B.CaseA2)). Briefly: ELISA. A general note: An ELISA detects its analyte on a solid surface through an enzyme-linked reagent.

As to “AE.A244 V1–V2 tags protein (domain or fragment)”, in the assay with V1–V2 bnAb PG9 (human), the Kd turned out to be 81.6 nM; the fold slower association rate than CH58 and CH59 turned out to be 40 fold.

mAb CH58 (antibody) returned a concentration for a half-maximal effect (EC50) in assay [1] of 9.3 nM.
